The test system of assay [1] is mutant HIV-1 I84V/L90M. Kind of assay: Resistance Evaluation, I84V/L90M fold change. The class given is cell-based. Particulars: EC50 of mutant I84V/L90M relative to wild type, class symbols.
In assay [2] the test system is mutant HIV-1 I50V #1 (M46I/I47V/I50V). Kind of assay: Resistance Evaluation, I50V #1 fold change. It is filed as cell-based. Particulars: EC50 of mutant M46I/I47V/I50V relative to wild type, class symbols.
The subject of assay [3] is HIV-1 30N82I88D. Particulars: read-out: Cell-based assay (MT-4) EC50/nM 30N82I88D; MT-4, 30N82I88D.
The subject of assay [4] is HIV-1 46I50V. Kind of assay: Cell-based assay (MT-4) EC50, 46I50V. Particulars: read-out: Cell-based assay (MT-4) EC50/nM 46I50V; MT-4, 46I50V.
For assay [5], the system named is HIV-1 84V90M. Put plainly: Cell-based assay (MT-4) EC50, 84V90M. Particulars: read-out: Cell-based assay (MT-4) EC50/nM 84V90M; MT-4, 84V90M.
In assay [6] the test system is HIV-1 48V54V82A. Kind of assay: Cell-based assay (MT-4) EC50, 48V54V82A. Particulars: read-out: Cell-based assay (MT-4) EC50/nM 48V54V82A; MT-4, 48V54V82A.
Assay [7] deals with WT HIV-1. Put plainly: Cell-based assay (MT-4) EC50, WT. The note with it: read-out: Cell-based assay (MT-4) EC50/nM WT; MT-4, WT.
The subject of assay [8] is mutant HIV-1 I50V #2 (L10I/M46I/I50V). Kind of assay: Resistance Evaluation, I50V #2 fold change. It is filed as cell-based. The note with it: EC50 of mutant L10I/M46I/I50V relative to wild type; class symbols; tested form: TFA.
The target of assay [9] is recombinant HIV-1 protease (Human immunodeficiency virus type 1 group M subtype B, UniProt P04585). Put plainly: HIV-1 Protease Enzyme Assay (Ki). It is filed as biochemical. Particulars: class symbols, Table 10; tested form: TFA.
Assay [10] concerns wild-type HIV-1 strain IIIB. Kind of assay: Anti-HIV-1 Cell Culture Assay (EC50). The class given is cell-based. Also on record: scale not given here. Particulars: class symbols, Table 10; tested form: TFA.

The text below walks through data of patent publication US20040121316A1 (priority 2002, published 2004).

SMILES strings stand for the structures. Structures were worked out from names or drawings and are uncertain.

With `CCOC(=O)C(CC)OP(=O)(COc1ccc(C[C@H](NC(=O)O[C@H]2CO[C@H]3OCC[C@H]32)[C@H](O)CN(CC(C)C)S(=O)(=O)c2ccc(OC)cc2)cc1)Oc1ccccc1` (stereo partly drawn), the I84V/L90M fold change entry in assay [1] is on record as “− (≦3)”. In [2], the “I50V (#1) fold change” value is listed as “+ (>3 to ≦10)”.
As for `CCCCOC(=O)[C@H](C)NP(=O)(COc1cccc(CN2C(=O)N(Cc3ccc4[nH]nc(N)c4c3)[C@H](Cc3ccccc3)[C@H](O)[C@@H](O)[C@H]2Cc2ccccc2)c1)Oc1ccccc1` (stereo partly drawn), the EC50 in [3] is 425 nM; in assay [4], 797 nM; in assay [5] it was greater than 6000 nM; in assay [6] it was 790 nM; in assay [7] it was 1040 nM.
Consider `CCOC(=O)[C@H](C)OP(=O)(CCNCc1ccc(C[C@H](NC(=O)O[C@H]2CO[C@H]3OCC[C@H]32)[C@H](O)CN(CC(C)C)S(=O)(=O)c2ccc(OC)cc2)cc1)Oc1ccccc1OCC` (stereo partly drawn), for which the “I50V (#2) fold change” value in [8] is recorded as “+ +”. In assay [1] (tested form: TFA), the I84V/L90M fold change result is given as “− (≦3)”. Also, in assay [9], the Ki result was “+ +”. In addition, the EC50 entry in assay [10] is “+ +”. Also, the “I50V (#1) fold change” value in assay [2] (tested form: TFA) was “− (≦3)”.
